## In-gel DMS probing of monomeric and dimeric HIV-1 RNA

Sequence of the HIV-1 NL4-3 5' RNA, positions 1 to 437, as numbered in the source:
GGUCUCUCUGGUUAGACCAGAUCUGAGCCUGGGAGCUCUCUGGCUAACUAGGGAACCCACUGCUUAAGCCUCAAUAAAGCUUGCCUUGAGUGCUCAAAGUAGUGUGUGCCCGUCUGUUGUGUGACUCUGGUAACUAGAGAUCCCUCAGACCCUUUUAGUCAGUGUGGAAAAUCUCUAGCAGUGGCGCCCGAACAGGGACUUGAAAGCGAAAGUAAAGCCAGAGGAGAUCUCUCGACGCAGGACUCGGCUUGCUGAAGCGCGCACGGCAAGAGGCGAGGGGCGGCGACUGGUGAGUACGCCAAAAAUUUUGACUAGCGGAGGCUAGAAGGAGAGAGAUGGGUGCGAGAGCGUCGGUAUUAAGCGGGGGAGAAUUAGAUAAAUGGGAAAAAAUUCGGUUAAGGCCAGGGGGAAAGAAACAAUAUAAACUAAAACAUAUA

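Randomly mutated transcripts starting with one, two or three G (1G, 2G, 3G), capped or uncapped, were folded for 30 min at 37 °C. Monomer and dimer bands were cut from native gels after folding in high salt (300 mM KCl, 5 mM MgCl2) or low salt (40 mM KCl, 0.1 mM MgCl2). Each band was probed in the gel with DMS (170 mM, 15 min, 37 °C), with ethanol as control, and sequenced.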

Values are winsor-normalised DMS reactivities of A and C; higher means more reactive, usually unpaired.
One numbering serves 1G, 2G and 3G.
A position is written with its base.

| position | 3G capped low-salt monomer | 1G uncapped high-salt monomer |
|---|---|---|
| A170 | 0.50 | 0.56 |
| A171 | 0.41 | 0.48 |
| C173 | 0.02 | 0.04 |
| C175 | 0.02 | 0.04 |
| A177 | 0.19 | 0.21 |
| C179 | 0.99 | 0.81 |
| A180 | 0.63 | 0.56 |
| C185 | 0.50 | 0.44 |
| C187 | 0.02 | 0.04 |
| C188 | 0.05 | 0.07 |
| C189 | 0.07 | 0.11 |
| A191 | 0.38 | 0.41 |
| A192 | 0.86 | 0.80 |
| C193 | 0.91 | 0.80 |
| A194 | 1.13 | 1.01 |
| A198 | 0.53 | 0.60 |
| C199 | 0.43 | 0.49 |
| A203 | 0.49 | 0.52 |
| A204 | 0.65 | 0.70 |
| A205 | 0.27 | 0.31 |
| C207 | 0.44 | 0.47 |
| A209 | 0.42 | 0.46 |
| A210 | 0.46 | 0.56 |
| A211 | 0.41 | 0.41 |
| A214 | 0.25 | 0.27 |
| A215 | 0.49 | 0.54 |
| A216 | 0.61 | 0.56 |
| C218 | 0.02 | 0.04 |
| C219 | 0.02 | 0.04 |
| A220 | 0.24 | 0.34 |
| A222 | 0.21 | 0.26 |
| A225 | 0.74 | 0.80 |
| A227 | 0.31 | 0.30 |
| C229 | 0.35 | 0.24 |
| C231 | 0.22 | 0.15 |
| C233 | 0.37 | 0.27 |
| A235 | 0.53 | 0.69 |
| C236 | 0.47 | 0.51 |
| C238 | 0.85 | 0.71 |
| A239 | 0.55 | 0.59 |
| A242 | 0.69 | 0.93 |
| C243 | 0.05 | 0.07 |
| C245 | 0.37 | 0.21 |
| C248 | 0.06 | 0.06 |
| C252 | 0.32 | 0.21 |
| A255 | 0.39 | 0.48 |
| A256 | 0.64 | 0.87 |
| C258 | 0.26 | 0.35 |
| C260 | 0.34 | 0.50 |
| C262 | 0.32 | 0.39 |
| A263 | 0.18 | 0.24 |
| C264 | 0.48 | 0.39 |
| C267 | 0.11 | 0.18 |
| A268 | 0.20 | 0.29 |
| A269 | 0.37 | 0.52 |

Extract of 4 entries:

* A210 = 3G capped low-salt monomer 0.46; 1G uncapped high-salt monomer 0.56
* A216 = 3G capped low-salt monomer 0.61; 1G uncapped high-salt monomer 0.56
* C267 = 3G capped low-salt monomer 0.11; 1G uncapped high-salt monomer 0.18
* A192 = 3G capped low-salt monomer 0.86; 1G uncapped high-salt monomer 0.80

Values reported by Ye et al. 2022 (doi:10.1038/s41594-022-00746-2).